Data as given in PubChem BioAssay AID1224833 (University of Georgia, 2016).

- Screen: 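Human genes whose knock-down alters rotavirus replication in monkey cells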 (primary screen)
- Cells: monkey MA104 kidney cells
- Reagent: siRNA pool against human genes, 50 nM
- Time to read-out: 48 h knock-down before infection; read 24 h after infection
- Conditions: infection with rotavirus strain RV3 two days after transfection; infectious dose for this stage not given
- Measured: 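z-score of rotavirus antigen signal per well, from a fluorescent immunoassay, relative to non-targeting control wells on the same plate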
- Scale: z-score vs non-targeting control: higher = more rotavirus replication than with non-targeting control
- Active means: In these data the active calls have z-score vs non-targeting control at about -1 or lower, or at about 1 or higher
- Meaning of the calls: active = z-score beyond 1 either way; inactive = z-score within 1 of zero
The whole screen tested about 12,000 reagents; this is a part drawn at random. Over the whole deposit, about 5,600 (46%) got an active call. 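Active calls cover z-scores past 1 in both directions, so they include lowered as well as raised rotavirus replication.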 Entries without a mark were called inactive.

Knock-down of HOXB3 resulted in: z-score vs non-targeting control 0.998. With knock-down of ROM1, the record shows z-score vs non-targeting control -0.583. With knock-down of SKIC3, the screen gave z-score vs non-targeting control -0.593. Against OR4A47, the values are z-score vs non-targeting control -1.3 (active). Knock-down of PCLAF came out at: z-score vs non-targeting control -2.46 (active). Against ZNF195 the deposit lists z-score vs non-targeting control -0.84.

For RGPD2, the entry reads z-score vs non-targeting control -1.64 (active). For ZNF85, the entry reads z-score vs non-targeting control 1.12 (active). Silencing of SRRT gave: z-score vs non-targeting control -0.233. WDHD1 scored z-score vs non-targeting control -0.643. TMEM138 gave z-score vs non-targeting control -1.5 (active). SPEF1 scored z-score vs non-targeting control -0.699.

Knock-down of SSPN gave: z-score vs non-targeting control -1.94 (active). Against HPS4, the values are z-score vs non-targeting control -0.737. After knock-down of RXRB the results were z-score vs non-targeting control -1.14 (active). After knock-down of LPL the results were z-score vs non-targeting control 0.523. Against GET3, the values are z-score vs non-targeting control 0.654. Depletion of AGR2 came out at: z-score vs non-targeting control -0.1.

Knock-down of MRPL48 came out at: z-score vs non-targeting control -0.406.

3 consecutive reagents from above:
HOXB3 — z-score vs non-targeting control = 0.998
ROM1 — z-score vs non-targeting control = -0.583
SKIC3 — z-score vs non-targeting control = -0.593
